Anti-infective test results gathered from many reports (values: NIAID ChemDB through PubChem).

Shared fields: enzyme or target tests; species: HIV-1; target: Protease

ICn is the concentration giving n% inhibition. Conditions beyond the fields shown may differ between rows. Percent inhibition refers to the dose given; in toxicity tests it is the harm to the cells. Fold resistance has wild type as its base. An empty or dashed field is not shown.

SMILES | strain | mutations | read by | setting | read-out | dose | result
CC(C)[C@H](NC(=O)N(C)Cc1ccccn1)C(=O)N[C@@H](Cc1ccccc1)[C@H](O)[C@H](O)[C@H](Cc1ccccc1)NC(=O)[C@@H](NC(=O)N(C)Cc1ccccn1)C(C)C | - | PR-R8Q | fluorescence | - | fold resistance | - | 32.1
CC(C)(C)NC(=O)[C@@H]1CSCN1C(=O)[C@@H](O)[C@H](Cc1ccccc1)NC(=O)CCC(=O)O | - | - | - | - | inhibition | 73.7 µM | 5%
O=C1CC2C(=O)Oc3cc(cc(O)c3O)C(=O)O[C@@H]3O[C@@H]4COC(=O)c5cc(O)c(O)c(c5[C@H]2C(=O)O[C@@H]2[C@H]3OC(=O)c3cc(O)c(O)cc3-c3c(cc5nc6ccccc6nc5c3O)C(=O)O[C@@H]24)O1 | - | - | HPLC | - | inhibition | 50 µg/mL | 0%
CC(C)CN(C[C@@H](O)[C@H](Cc1ccccc1)NC(=O)[C@H](CC(N)=O)NC(=O)c1ccc2ccccc2n1)C(=O)NC(C)(C)C | - | PR-V82A | HPLC | - | fold resistance | - | 1
CC(C)(C)OC(=O)N1CCC[C@H]1C(O)CNCC(O)[C@@H]1CCCN1C(=O)OC(C)(C)C | - | - | HPLC | pH 5.5 | IC50 | - | >10 µM
O=S1(=O)N(Cc2ccc(-c3cccs3)cc2)[C@H](COc2ccccc2)[C@H](O)[C@@H](O)[C@@H](COc2ccccc2)N1Cc1ccc(-c2cccs2)cc1 | - | PR-V82A | - | - | fold resistance | - | 8.37
O=C1C[C@@H](c2ccc(O)cc2)Oc2cc(O)cc(O)c21 | - | - | fluorescence | - | inhibition | 50 µg/mL | 17%
Cc1ccc(Cl)cc1N1CCN(Cc2cn([C@@H](Cc3ccccc3)[C@H](Cc3ccccc3)NC(=O)Nc3ccc(F)cc3)nn2)CC1 | - | - | fluorescence | - | IC50 | - | >5 µM
O=S1(=O)N(Cc2cccc(I)c2)[C@H](COc2ccccc2)[C@H](O)[C@@H](O)[C@@H](COc2ccccc2)N1Cc1cccc(I)c1 | - | PR-I84V | - | - | fold resistance | - | 1420
CC(C)(C)OC(=O)N[C@@H](Cc1ccccc1)[C@@H](O)CNC[C@H](O)[C@H](Cc1ccccc1)NC(=O)OC(C)(C)C | - | - | HPLC | pH 5.5 | IC50 | - | >10 µM
CC(C)[C@H](NC(=O)N(C)Cc1ccccn1)C(=O)N[C@@H](Cc1ccccc1)[C@H](O)[C@H](O)[C@H](Cc1ccccc1)NC(=O)[C@@H](NC(=O)N(C)Cc1ccccn1)C(C)C | - | PR-A71T V82A | HPLC | - | fold resistance | - | 4
Cc1cc(SC2=C(O)C[C@@](CCc3ccc(O)cc3)(C(C)C)OC2=O)c(C(C)(C)C)cc1CO | - | PR-V32I | HPLC / absorbance | - | fold resistance | - | 3.3
CC(C)(C)OC(=O)N1CCN(Cc2cn([C@@H](Cc3ccccc3)[C@H](Cc3ccccc3)NC(=O)OC3CCCC3)nn2)CC1 | - | - | fluorescence | - | IC50 | - | ~5 µM
CC(C)(C)NC(=O)[C@H]1N(C(=O)[C@@H](O)[C@H](Cc2ccccc2)NC(=O)CC(C)(C)C(=O)O)CSC1(C)C | - | - | - | - | inhibition | 76.3 µM | 0.05%
CNC(=O)CN1[C@H](COc2ccccc2)[C@H](O)[C@@H](O)[C@@H](COc2ccccc2)N(CC(=O)NC)S1(=O)=O | - | PR-G48V L90M | - | - | fold resistance | - | 0.96
Cc1ccc(Cl)cc1N1CCN(Cc2cn([C@@H](Cc3ccccc3)[C@H](Cc3ccccc3)NC(=O)c3ccco3)nn2)CC1 | - | - | fluorescence | - | IC50 | - | >5 µM
CC(C)(C)OC(=O)N[C@@H](Cc1ccccc1)[C@H](O)CNC[C@@H](O)[C@H](Cc1ccccc1)NC(=O)[C@@H](NC(=O)OCc1ccccc1)c1ccccc1 | - | - | HPLC | pH 5.5 | IC50 | - | <10 µM
Cc1cc(SC2=C(O)C[C@@](CCc3ccc(N)cc3)(C(C)C)OC2=O)c(C(C)(C)C)cc1CO | - | PR-D30N | HPLC / absorbance | - | fold resistance | - | 1.2
CC(C)(C)OC(=O)N[C@@H](Cc1ccccc1)[C@@H](O)C[C@@H](Cc1ccc(OCCN2CCOCC2)cc1)C(=O)N[C@H]1c2ccccc2C[C@H]1O | - | PR-M46I | fluorescence | - | fold resistance | - | 1.06
Cc1c(O)cccc1C(=O)N[C@@H](Cc1ccccc1)[C@H](O)C(=O)N1CSC(C)(C)[C@H]1C(=O)NC(C)(C)C | - | - | - | - | inhibition | 87.6 µM | 0.05%
CC(C)[C@H](NC(=O)OCc1ccccc1)C(=O)N[C@@H](Cc1ccccc1)[C@H](O)CNC[C@@H](O)[C@H](Cc1ccccc1)NC(=O)[C@@H](NC(=O)OCc1ccccc1)C(C)C | - | - | HPLC | pH 5.5 | IC50 | - | <10 µM
CCOC(=O)N1CCN(Cc2cn([C@@H](Cc3ccccc3)[C@H](Cc3ccccc3)NC(=O)OC3CCCC3)nn2)CC1 | - | - | fluorescence | - | IC50 | - | >5 µM
C[C@@H]1O[C@@H](OC[C@H]2O[C@@H](Oc3c(-c4ccc(O)cc4)oc4cc(O[C@@H]5O[C@@H](C)[C@H](O)[C@@H](O)[C@H]5O)cc(O)c4c3=O)[C@H](O)[C@@H](O)[C@H]2O)[C@H](O)[C@H](O)[C@H]1O | - | - | fluorescence | - | inhibition | 50 µg/mL | 69.8%
Cc1ccc(Cl)cc1N1CCN(Cc2cn([C@@H](Cc3ccccc3)[C@H](Cc3ccccc3)NC(=O)OCC3CCCC3)nn2)CC1 | - | - | fluorescence | - | IC50 | - | <5 µM
C/C(=N\O)c1cccc(CN2[C@H](COc3ccccc3)[C@H](O)[C@@H](O)[C@@H](COc3ccccc3)N(Cc3cccc(/C(C)=N/O)c3)S2(=O)=O)c1 | - | PR-V82A | - | - | fold resistance | - | 11.5
O=C(N[C@@H](Cc1ccccc1)[C@H](Cc1ccccc1)n1cc(CN2CCN(C(=O)OCc3ccccc3)CC2)nn1)OC1CCCC1 | - | - | fluorescence | - | IC50 | - | >5 µM
CNC(=O)[C@@H](NC(=O)[C@H](OCc1ccccc1)[C@H](O)[C@@H](O)[C@@H](OCc1ccccc1)C(=O)N[C@H]1c2ccccc2C[C@H]1O)C(C)C | - | PR-I84V L90M | - | - | fold resistance | - | 3.57
O=c1c(O)c(-c2ccccc2)oc2cc(O)cc(O)c12 | - | - | fluorescence | - | inhibition | 50 µg/mL | 27.1%
O=C1N(Cc2ccc(CO)cc2)[C@H](COc2ccccc2)[C@H](O)[C@@H](O)[C@@H](COc2ccccc2)N1Cc1ccc(CO)cc1 | IIIB | PR-L90M PR-I84V | fluorescence | - | fold resistance | - | 13.5

A second listing of 2 rows from above:

SMILES	strain	mutations	read by	setting	read-out	dose	result
Cc1cc(SC2=C(O)C[C@@](CCc3ccc(O)cc3)(C(C)C)OC2=O)c(C(C)(C)C)cc1CO	-	PR-V32I	HPLC / absorbance	-	fold resistance	-	3.3
CC(C)(C)OC(=O)N[C@@H](Cc1ccccc1)[C@@H](O)C[C@@H](Cc1ccc(OCCN2CCOCC2)cc1)C(=O)N[C@H]1c2ccccc2C[C@H]1O	-	PR-M46I	fluorescence	-	fold resistance	-	1.06